From PubChem BioAssay AID588742 (Southern Research Specialized Biocontainment Screening …, 2011)
Only a part is listed here, and it is no random draw. Measured potencies and affinities stand elsewhere. Active and inactive are the calls of the source. The rule behind the calls is not given here.

Test: viability of Vero cells under compound – cytotoxicity control for flavivirus capping enzyme inhibitors (AID 588742)
Conditions: cytotoxicity counter-screen; at 40 µM (top of the series)

SMILES | viability
Nc1cccc2ccc([As](=O)(O)O)cc12 | inactive: 89%
O=[N+]([O-])c1ccc(-c2cc([N+](=O)[O-])c(O)c([N+](=O)[O-])c2)cc1 | inactive: 94.2%
